Where two headings read alike, the source gives them in different places.
Experiments:
[1] = tested on: wild-type A75/17-CDV (A75^neon/nLucP); assay type: cell-based, canine distemper virus
[2] = tested on: attenuated OP-CDV strain (OP^neon/nLucP); assay type: cell-based, canine distemper virus; conditions: for SI: CC50/IC50, CDV (OP)
Vero and P114 cell lines = assay: Click chemistry intracellular localization; assay type: cell-based, monkey, canine; conditions: 2 μM, 3 h, Vero and P114 cells

`CC1(C)Cc2cccc(OCC(=O)Nc3nc4ccccc4s3)c2O1` [compound 1] was tested, and the SI [1] was 74 and the “ratio of cell-cycle-affecting concentration to IC50” value (Vero-cSLAM cells) was “about 60 times”.

With `CN(C(=O)COc1cccc2c1OC(C)(C)C2)c1nc2c(s1)CCCC2` [compound 2] the SI ([1]; CC50/IC50, CDV (A75), Vero-cSLAM) was 17,000, the “ratio of cell-cycle-affecting concentration to IC50” value (Vero-cSLAM cells) was “about 200 times” and the “improvement of inhibitory activity versus compound 1” value [2] was “about 100 times”. For the same molecule, the SI ([2]; MDCK) was 1,300, the SI ([2]; P114) was 3,400 and the SI ([2]; Vero) was 17,000. For the same molecule, the SI ([2]; Vero-cSLAM) was 20,000.

Molecule `N#Cc1cccc(NC(=O)Cc2ccccc2)c1` [compound 3, reference compound] has an SI ([2]; Vero-cSLAM) of ~16.

`C#CCCCN(C(=O)COc1cccc2c1OC(C)(C)C2)c1nc2ccccc2s1` [compound 23] was tested, and the “intracellular localization (click reaction with azide-linked Alexa Fluor 488)” value (Vero and P114 cell lines) was “intracellular localization”.

— publication PMC8561388 (mBio, 2021)
